Percent effect of library compounds

Each number is a percent effect as filed.
The controls that fix the scale are not given in the record; negative values are as filed.
This is part of a subset picked to be rich in strong results.
A dash means the value is not listed here; it may have been measured.

A: 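Growth of Mycobacterium tuberculosis over 3 days (7H9 medium with glucose and tyloxapol); the read-out is not stated. Concentration: 500 µM. Higher reads as more growth inhibition (inferred: compounds with an IC50 in retests scored well above the rest). Of about 18,000 compounds tested this way, about 1,400 (7.9%) reached 50% or more in at least one test.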
B: 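Growth of Mycobacterium tuberculosis over 4 days (cholesterol / DPPC medium with tyloxapol); the read-out is not stated. Concentration: 500 µM. The record gives no direction; compounds that gave an IC50 in retests scored well above the rest, so higher reads as more growth inhibition. Of about 18,000 compounds tested this way, about 900 (5%) reached 50% or more in at least one test.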

Nc1nnc(SCC(=O)NCCc2cccc(Cl)c2)s1 read A: 56.59%.
O=C(NC1CCCCC1)c1ccc(CO)cc1 read A: 62.19%; B: 63.3%.
O=C(CCc1ccccc1)N1CCCNCC1 read A: 58.21%.
CC(NCCn1cc(Br)cn1)c1ccncc1 (stereo not given) read A: 9.82%.
Cn1ccc(C(=O)Nc2ccc(Br)cn2)n1 read A: 6.94%.
Cc1cc(NC2(CO)CCC2)n2ncnc2n1 read B: -7.111%.
NCc1ccc(N2CC=CC2)cc1 read A: 38.25%.
COC(=O)c1sccc1NC(=O)CSc1nnc(N)s1 read A: 21.6%.
CN(C)C[C@@H]1CN(C(=O)c2ccccc2Cl)C[C@@H]1CO read B: -10.79%.
CCOc1ccc(C(=O)N(C)C(C)c2ccncn2)o1 (stereo not given) read A: 21.43%.
N#Cc1ccnc(N2CCCC(O)C2)c1 (stereo not given) read A: 13.18%.
Cc1cccc(-n2cc(CN)cn2)c1 read A: 44.26%; B: 40.27%.
CCOc1cc(C)ccc1S(=O)(=O)Nc1ccccn1 read B: 7.626%.
CC(C)(C)OC(=O)NCC1CCNC1 (stereo not given) read A: 26.77%.
CN(CC(=O)N1CCOCC1)Cc1cc(Br)cs1 read A: 57.3%; B: 53.14%.
COC(CO)Cc1ccccc1 (stereo not given) read A: 5.739%.
Cn1ccnc1C1CCCN1 (stereo not given) read A: -3.847%.
COc1cc(Cl)ccc1CN1CCNC(=O)C1 read A: 30.41%.
CCO[C@H]1CN(C(=O)CCn2ccnc2C)C[C@@H]1O read B: 13.87%.
Cc1ccc(NC(C)C(=O)N2CCNC2=O)cc1F (stereo not given) read B: 32.29%.
CCOCCC(=O)N1CCN(c2ccc(F)cc2)CC1 read A: 74.51%; B: 70.18%.
CN(CCOc1ccc(Cl)cc1)S(C)(=O)=O read A: 77.19%; B: 66.95%.
O=C(NCCSC1CCCC1)c1ccccn1 read A: 68.62%; B: 51.02%.
CCc1cnc(NC(=O)N2CCC(O)C2)s1 (stereo not given) read B: 4.273%.
CCCC(C)N1CCN(Cc2nc(COC)no2)CC1 (stereo not given) read B: 18.34%.

The last 2 entries again:

| SMILES | A | B |
|---|---|---|
| `CCc1cnc(NC(=O)N2CCC(O)C2)s1` (stereo not given) | - | 4.273 |
| `CCCC(C)N1CCN(Cc2nc(COC)no2)CC1` (stereo not given) | - | 18.34 |

The values are deposited in ChEMBL (CHEMBL3988442, “University of Dundee, Small-Polar-MMV Screening Library” (2021)).